Anti-infective test results gathered from many reports (values: NIAID ChemDB through PubChem).

Shared fields: enzyme or target tests

An empty or dashed field is not shown. ICn is the concentration giving n% inhibition. Neighbouring rows are from separate reports. Two numbers with a dash give a range or band. Percent inhibition refers to the dose given; in toxicity tests it is the harm to the cells.

{"compound": "O=C(O)c1ccc(N2C(=O)C(=Cc3ccc(-c4ccco4)o3)SC2=S)cc1", "organism": "Bovine viral diarrhea virus", "target": "NS5 polymerase", "measure": "IC50", "value": "≤1 µM"}
{"compound": "O=C(O)c1sc(-c2ccccc2)cc1N(C(=O)c1ccc(Cl)cc1Cl)C1CCN(C(=O)c2ccc(Cl)cc2Cl)CC1", "organism": "Hepatitis C virus", "target": "NS3 ATPase", "measure": "IC50", "value": "<5 µM"}
{"compound": "COc1cc(N(C)Cc2c(Br)sc3nc(N)nc(N)c23)cc(OC)c1OC", "organism": "Cryptosporidium parvum", "strain": "TYPE 2", "target": "Dihydrofolate reductase", "measure": "IC50", "value": ">10 µM"}
{"compound": "Cc1cccc(C)c1S(=O)(=O)Nc1cc(-c2ccccc2)sc1C(=O)O", "organism": "Hepatitis C virus", "target": "NS3 ATPase", "measure": "IC50", "value": "<5 µM"}
{"compound": "COc1cccc(-c2cncc(N3CCN(c4ccccc4OC)CC3)n2)c1", "organism": "Cytomegalovirus", "target": "UL97 kinase", "measure": "inhibition", "dose": "1 µM", "value": "<50%"}
{"compound": "O=C(O)c1ccc(N2C(=O)C(=Cc3ccc(-c4cc(C(F)(F)F)ccc4Cl)o3)SC2=S)cc1Cl", "organism": "Bovine viral diarrhea virus", "target": "NS5 polymerase", "measure": "IC50", "value": "≤1 µM"}
{"compound": "Nc1nc(N)c2c(n1)CCC(Cc1cccc(C(F)(F)F)c1)C2", "organism": "Cryptosporidium parvum", "strain": "TYPE 1", "target": "Dihydrofolate reductase", "measure": "IC50", "value": "0.45 µM"}
{"compound": "c1ccc(N2CCN(c3cncc(-c4cccc5ccccc45)n3)CC2)cc1", "organism": "Cytomegalovirus", "target": "UL97 kinase", "measure": "IC50", "value": "<100 µM"}
{"compound": "O=C(O)CCN1C(=O)C(=Cc2ccc(C#Cc3ccccc3)o2)SC1=S", "organism": "Bovine viral diarrhea virus", "target": "NS5 polymerase", "measure": "IC50", "value": "≤1 µM"}
{"compound": "COc1ccc(N2CCN(c3cnccn3)C(c3cc4ccccc4o3)C2)cc1", "organism": "Cytomegalovirus", "target": "UL97 kinase", "measure": "inhibition", "dose": "1 µM", "value": "<50%"}
{"compound": "O=C(O)CCN1C(=O)C(=Cc2ccc(C#Cc3ccccc3)s2)SC1=S", "organism": "Bovine viral diarrhea virus", "target": "NS5 polymerase", "measure": "IC50", "value": "≤1 µM"}
{"compound": "Nc1nc(N)c2c(n1)Cc1ccc(Cl)cc1-2", "organism": "Cryptosporidium parvum", "strain": "TYPE 2", "target": "Dihydrofolate reductase", "measure": "IC50", "value": ">10 µM"}
{"compound": "COc1ccc(N2CCN(c3cncc(-c4csc5ccccc45)n3)CC2)cc1OC", "organism": "Cytomegalovirus", "target": "UL97 kinase", "measure": "inhibition", "dose": "1 µM", "value": "<50%"}
{"compound": "Cc1ccc(C(=O)N(C)c2cc(-c3ccccc3Cl)sc2C(=O)O)cc1", "organism": "Hepatitis C virus", "target": "NS3 ATPase", "measure": "IC50", "value": "5–20 µM"}
{"compound": "Cc1ccc(-c2ccc(C=C3SC(=S)N(c4ccc(C(=O)O)cc4)C3=O)o2)cc1C", "organism": "Bovine viral diarrhea virus", "target": "NS5 polymerase", "measure": "IC50", "value": "≤1 µM"}
{"compound": "COc1cc(CNc2ccc3nc(N)nc(N)c3c2Cl)cc(OC)c1OC", "organism": "Cryptosporidium parvum", "strain": "TYPE 1", "target": "Dihydrofolate reductase", "measure": "IC50", "value": "0.027 µM"}
{"compound": "c1cncc(-c2cncc(N3CCN(c4ccncc4)CC3)n2)c1", "organism": "Cytomegalovirus", "target": "UL97 kinase", "measure": "inhibition", "dose": "10 µM", "value": ">15%"}
{"compound": "COc1cc(CCNc2ccc3nc(N)nc(N)c3c2Cl)cc(OC)c1OC", "organism": "Cryptosporidium parvum", "strain": "TYPE 1", "target": "Dihydrofolate reductase", "measure": "IC50", "value": ">10 µM"}
{"compound": "COc1ccc(N2CCN(c3cncc(-c4ccc(C#N)cc4)n3)CC2)cc1", "organism": "Cytomegalovirus", "target": "UL97 kinase", "measure": "IC50", "value": "<10 µM"}
{"compound": "COc1ccc(OC)c(Cc2sc3nc(N)nc(N)c3c2C)c1", "organism": "Cryptosporidium parvum", "strain": "TYPE 2", "target": "Dihydrofolate reductase", "measure": "IC50", "value": "8.4 µM"}
{"compound": "CCOc1ccc(-c2cncc(N3CCN(c4ccc(C)cc4)CC3)n2)cc1", "organism": "Cytomegalovirus", "target": "UL97 kinase", "measure": "inhibition", "dose": "10 µM", "value": ">15%"}
{"compound": "Cc1ccccc1S(=O)(=O)Nc1cc(-c2ccc(C#N)s2)sc1C(=O)O", "organism": "Hepatitis C virus", "target": "NS3 ATPase", "measure": "IC50", "value": "<5 µM"}

For reference, 3 entries again:

compound | organism | strain | target | measure | dose | value
Cc1cccc(C)c1S(=O)(=O)Nc1cc(-c2ccccc2)sc1C(=O)O | Hepatitis C virus |  | NS3 ATPase | IC50 |  | <5 µM
Cc1ccc(C(=O)N(C)c2cc(-c3ccccc3Cl)sc2C(=O)O)cc1 | Hepatitis C virus |  | NS3 ATPase | IC50 |  | 5–20 µM
O=C(O)c1ccc(N2C(=O)C(=Cc3ccc(-c4cc(C(F)(F)F)ccc4Cl)o3)SC2=S)cc1Cl | Bovine viral diarrhea virus |  | NS5 polymerase | IC50 |  | ≤1 µM